A mixed list of measured activities; the numbers were collected in NIAID ChemDB.

All rows: whole-cell or culture tests; organism: Mycobacterium tuberculosis

ECn: concentration that inhibits the pathogen or its effect by n%.

structure	method	tested at	strain or isolate	endpoint	setting	value
CC(=O)Nc1oc(C)c(C)c1S(=O)(=O)c1ccc(Cl)cc1	resazurin	6.25 µg/mL	H37Rv	inhibition	-	-2%
O=C(O[C@@H]1Cc2c(O)cc(O)cc2O[C@@H]1c1ccc(O)c(O)c1)c1cc(O)c(O)c(O)c1	-	-	-	MIC	-	>128 µg/mL
CC(C)=CCCC(C)[C@H]1CC[C@]2(C)C3=CC[C@@H]4[C@H](CC[C@H](O)C4(C)C)[C@H]3CC[C@@]12C	-	-	H37Rv	MIC	-	>64 µg/mL
CC1=CC(=O)C(C(C)C)=CC1=O	broth dilution	-	H37Ra ATCC 25177	MIC	-	8 µg/mL
N#[N+]c1cn([C@H]2C[C@H](O)[C@@H](CO)O2)c(=O)nc1[O-]	resazurin	6.25 µg/mL	H37Rv	inhibition	-	-42%
CCCCc1ncc(C(N)=O)nc1SCC	-	12.5 µg/mL	H37Rv	inhibition	-	<90%
COc1ccc(C2C(C(=O)Nc3ccc([N+](=O)[O-])cc3)=C(C)NC(C)=C2C(=O)Nc2ccc([N+](=O)[O-])cc2)cc1	-	-	H37Rv	MIC	-	>6.25 µg/mL
CCCCCOC(=O)c1cn(-c2ccccn2)nn1	-	-	H37Rv	MIC	-	>6.25 µg/mL
CO[C@H]1/C=C/O[C@@]2(C)Oc3c(C)c(O)c4c(O)c(c(/C=N/N5CCN(C)CC5)c(O)c4c3C2=O)NC(=O)/C(C)=C\C=C\[C@H](C)[C@H](O)[C@@H](C)[C@@H](O)[C@@H](C)[C@H](OC(C)=O)[C@@H]1C	-	-	M103L	MIC	-	0.007 µg/mL
O=C(O)c1nc(C2C3CC4CC(C3)CC2C4)[nH]c1C1C2CC3CC(C2)CC1C3	-	-	H37Rv	MIC	-	>6.25 µg/mL
Cc1ccc(O)c(C(=S)NCc2ccccc2)c1	-	-	My 331/88	MIC	-	0.5 µg/mL
CCCCSc1nc(C(N)=O)cnc1C(C)(C)C	-	-	H37Rv	MIC	-	>12.5 µg/mL
CC(C)(C)c1ncc(C(=O)NN)[nH]1	-	6.25 µg/mL	H37Rv	inhibition	-	10%
O=c1oc2ccc(Br)cc2cc1-c1cs/c(=N\N=C\c2ccc(Cl)c(Cl)c2)n1Cc1ccccc1	-	6.25 µg/mL	H37Rv	inhibition	-	<11%
O=C(/C=C/C=C/c1ccc2c(c1)OCO2)N1CCCCC1	PCR	-	-	MIC	clinical isolate	>100 µg/mL
c1ccc(C(CCNCCNC2CCCCCCC2)c2ccccc2)cc1	-	-	H37Rv	MIC	-	3 µM
C=C(C)[C@@H]1CC[C@]2(C)CC[C@]3(C)[C@H](CC[C@@H]4[C@@]5(C)CC[C@@H](O)C(C)(C)[C@@H]5CC[C@]43C)[C@@H]12	-	-	H37Rv	MIC	-	4 µg/mL
COc1cc(/C=N/N=c2\scc(-c3cc4cc(Br)ccc4oc3=O)n2Cc2ccccc2)ccc1O	-	6.25 µg/mL	H37Rv	inhibition	-	<11%
COc1ccc(CNC(=S)c2ccccc2O)cc1	-	-	My 331/88	MIC	-	4 µg/mL
Cc1csc([C@](C)(O)c2nnc(Nc3ccn(Cc4c(F)cccc4F)n3)s2)n1	-	-	M103I	MIC	-	>25 µg/mL
Cc1nn(C(=O)c2ccncc2)c(C)c1N=Nc1ccc(S(N)(=O)=O)cc1	BACTEC	-	H37Rv	MIC bound	-	>12.5 µg/mL
C[C@@H]1[C@H]2C[C@@H](C[C@H]1NCCNCC1C[C@@H]3C[C@H](C1)C3(C)C)C2(C)C	-	-	H37Rv	MIC	-	1 µM
CC1=CC(=O)c2c(O)cccc2C1=O	broth dilution	-	H37Ra ATCC 25177	MBC	-	16 µg/mL
CCOc1cc(/C=N/N=c2\scc(-c3cc4cc(Br)ccc4oc3=O)n2Cc2ccccc2)ccc1O	-	6.25 µg/mL	H37Rv	inhibition	-	<11%
CCCOC(=O)c1cn(-c2cc(C)ccn2)nn1	-	6.25 µg/mL	H37Rv	inhibition	-	70%
C[C@]1(COc2ccc(N3CCC(Oc4ccc(OC(F)(F)F)cc4)CC3)cc2)Cn2cc([N+](=O)[O-])nc2O1	-	-	Kurono	MIC	-	0.012 µg/mL
C/C=C1\CN2CCC1CC2C(O)c1ccnc2ccc(O)cc12	-	6.25 µg/mL	H37Rv	inhibition	-	7%
CCCCCOC(=O)c1cn(-c2ccc(-c3ccccc3)nn2)nn1	-	-	H37Rv	MIC	-	3.13 µg/mL
COc1ccccc1/C=N/N=c1\scc(-c2cc3cc(Br)ccc3oc2=O)n1Cc1ccccc1	-	6.25 µg/mL	H37Rv	inhibition	-	<11%
CCOC(=O)c1nc(C2CCCCC2)[nH]c1C1CCCCC1	-	6.25 µg/mL	H37Rv	inhibition	-	99%
O=C(CC1Sc2ccccc2NC1=O)NNc1cc(Cl)ccc1Cl	BACTEC	-	H37Rv	MIC bound	-	>12.5 µg/mL
C=C(C)CC[C@H]1CN(c2ccn(N3CCOCC3)c2)C(=O)O1	-	-	C.I.1104	MIC50	-	>100 µM
O=C(NCc1cccc(C(F)(F)F)c1)c1ccccc1O	-	-	My 331/88	MIC	-	62.5 µg/mL
CC(C)Cc1ncc(C(N)=O)nc1Sc1ccccc1	-	-	H37Rv	MIC	-	>12.5 µg/mL
Cc1ccc(O)c(C(=S)NCc2cccc([N+](=O)[O-])c2)c1	-	-	My 331/88	MIC	-	2 µg/mL
CCCCC[C@H]1CCCCCCCCCC(=O)O[C@H]2[C@H](O)[C@@H](CO)OC(O[C@H]3[C@H](O1)O[C@H](C)[C@H](O)[C@@H]3O)[C@@H]2OC1O[C@@H](C)[C@H](OC(=O)[C@H](C)[C@@H](C)O)[C@@H](OC2O[C@@H](C)[C@H](O)[C@@H](O)[C@H]2O)[C@H]1OC(=O)C(C)CC	-	-	-	MIC	-	32 µg/mL
COc1cc2c(c3oc4c(c(=O)c13)CCCC4)CCC(C)(C)O2	BACTEC	-	H37Rv	MIC	-	≥12.5 µg/mL
CC1=C(C(=O)Nc2ccccc2C)C(c2ccc(N(C)C)cc2)C(C(=O)Nc2ccccc2C)=C(C)N1	-	-	H37Rv	MIC	-	>12.5 µg/mL
COC(=O)c1cn(-c2nccs2)nn1	-	6.25 µg/mL	H37Rv	inhibition	-	1%
CC1COc2c(N3CCN(C)CC3)c(F)cc3c(=O)c(C(=O)O)cn1c23	-	-	10 strains	MIC	-	≤1 µg/mL
COc1ccc(/C=N/NC(=O)c2cnc(C3C4CC5CC(C4)CC3C5)[nH]2)cc1	-	6.25 µg/mL	H37Rv	inhibition	-	11%
CCC(CO)NCCNC1CCC1	-	-	H37Rv	MIC	-	150 µM
CCOC(=O)c1cn(-c2ccccn2)nn1	-	6.25 µg/mL	H37Rv	inhibition	-	74%
NNC(=O)c1cnc(C2CCCCC2)[nH]1	-	6.25 µg/mL	H37Rv	inhibition	-	54%
CO[C@H]1/C=C/O[C@@]2(C)Oc3c(C)c(O)c4c(O)c(c(/C=N/N5CCN(C6CCCC6)CC5)c(O)c4c3C2=O)NC(=O)/C(C)=C\C=C\[C@H](C)[C@H](O)[C@@H](C)[C@@H](O)[C@@H](C)[C@H](OC(C)=O)[C@@H]1C	-	-	12761	MIC	-	0.02 µg/mL
CCCCc1ncc(C(N)=S)nc1SC	-	-	H37Rv	MIC	-	>12.5 µg/mL
CC1(C)CC[C@]2(C)CC[C@]3(C)C(=CC[C@@H]4[C@@]5(C)CC[C@H](O)C(C)(C)[C@@H]5CC[C@]43C)[C@@H]2C1	-	-	H37Rv	MIC	-	>64 µg/mL
Nc1ccn([C@@H]2O[C@H](C(O[C@@H]3O[C@H](CO)[C@@H](O)[C@H](N)[C@H]3O)[C@@H](O)[C@@H](O)[C@@H](O)[C@@H](O)CO)[C@@H](N)[C@H](O)[C@H]2O)c(=O)n1	-	-	KM-R	MIC	-	12.5 µg/mL
C=C1CC[C@]2(C)CC[C@]3(C)C(CCC4[C@@]5(C)CC[C@H](O)C(C)(C)C5CC[C@]43C)C2[C@@H]1C	-	-	H37Rv	MIC	-	64 µg/mL
CCCSc1nc(C(N)=S)cnc1CCC	-	12.5 µg/mL	H37Rv	inhibition	-	<90%
COC(=O)C1=C(C)N(c2cccc(C)c2)C(C)=C(C(=O)OC)C1c1ccc(Cl)cc1	-	-	H37Rv	MIC	-	>6.25 µg/mL
CCOC(=O)c1cnc(C2CCCCC2)[nH]1	-	6.25 µg/mL	H37Rv	inhibition	-	22%
CO[C@H]1/C=C/O[C@@]2(C)Oc3c(C)c(O)c4c(O)c(c(/C=N/N5CCN(C)CC5)c(O)c4c3C2=O)NC(=O)/C(C)=C\C=C\[C@H](C)[C@H](O)[C@@H](C)[C@@H](O)[C@@H](C)[C@H](OC(C)=O)[C@@H]1C	resazurin	-	H37Ra	MIC	-	0.05–0.1 µg/mL
CCCc1ncc(C(N)=O)nc1SC	-	12.5 µg/mL	H37Rv	inhibition	-	<90%
c1ccc([C@H]2C[C@@H]2NCCNC23CC4CC(CC(C4)C2)C3)cc1	-	-	H37Rv	MIC	-	5 µM
O=C1Nc2ccccc2C12OCCS2	BACTEC	-	H37Rv	MIC bound	-	>12.5 µg/mL
CCOC(=O)c1cn(-c2cc(C)ccn2)nn1	-	6.25 µg/mL	H37Rv	inhibition	-	98%
CC1=C(O)C(=O)C=C2C1=CC=C1[C@@]2(C)CC[C@@]2(C)[C@@H]3C[C@](C)(C(=O)O)CC[C@]3(C)CC[C@]12C	BACTEC	-	H37Rv	MIC	-	≥12.8 µg/mL
NC[C@@H]1O[C@H](O[C@H]2[C@@H](O)[C@H](O[C@@H]3[C@@H](O)[C@H](N)C[C@H](N)[C@H]3O[C@H]3O[C@H](CO)[C@@H](O)C[C@H]3N)O[C@@H]2CO)[C@H](N)[C@@H](O)[C@@H]1O[C@H]1O[C@H](CO)[C@@H](O)[C@H](O)[C@@H]1O	-	-	Aoyama B (isoniazid-resistant)	EC50	-	25–50 µg/mL
COC(=O)C1(NC(=O)C(Cc2ccccc2)NC(=O)C(NC(=O)C(CCCCNC(=O)OC(C)(C)C)NC(=O)C(Cc2c[nH]c3ccccc23)NC(=O)C(Cc2ccccc2)NC(=O)OCc2ccccc2)C(C)OC(C)(C)C)CCCC1	BACTEC	-	H37Rv	MIC bound	-	>12.5 µg/mL
CCCCCCNC(=O)CCc1cnc(C2C3CC4CC(C3)CC2C4)[nH]1	-	-	H37Rv	MIC	-	>6.25 µg/mL
CC(C)=CCC(OC(=O)CC(C)C)C1=CC(=O)c2c(O)ccc(O)c2C1=O	BACTEC	12.5 µg/mL	H37Rv	inhibition	-	91%
Oc1ccc(CCN=C=S)cc1	visual reading	-	W multidrug-resistant	MIC	-	4 µg/mL
C=C[C@@](C)(O)CC/C=C(/C)CCC=C(C)C	-	-	H37Rv	MIC bound	-	>6.25 µg/mL
O=c1oc2ccccc2cc1-c1cs/c(=N\N=C\c2cc(Br)ccc2O)n1Cc1ccccc1	-	-	H37Rv	MIC	-	>6.25 µg/mL
CCN(CC)CC(O)CNC(=O)c1c2nc3c(C(=O)NCC(O)CN(CC)CC)ccc(C)c3oc-2c(C)c(=O)c1N	BACTEC	-	H37Rv	MIC bound	-	≤12.5 µg/mL
CCOc1cc(/C=N/N=c2\scc(-c3cc4ccccc4oc3=O)n2Cc2ccccc2)ccc1O	-	6.25 µg/mL	H37Rv	inhibition	-	<11%
C=C[C@H]1CN2CC[C@H]1C[C@H]2[C@H](O)c1ccnc2ccc(OC)cc12	resazurin	-	H37Rv	MIC bound	-	>6.25 µg/mL
C[C@H]1COc2c(N3CCN(C)CC3)c(F)cc3c(=O)c(C(=O)O)cn1c23	-	-	19 strains	MIC	-	16 µg/mL
CCC(CO)NCCNC1CCCCC1	-	-	H37Rv	MIC	-	300 µM
c1ccc2c(c1)N=NN1CCCOC21	BACTEC	-	H37Rv	MIC bound	-	>12.5 µg/mL
CC1=C(C(=O)Nc2ccc(F)cc2)C(c2cccc(Br)c2)C(C(=O)Nc2ccc(F)cc2)=C(C)N1	-	-	H37Rv	MIC	-	>6.25 µg/mL
CCOC(=O)NC(=O)c1cn(CC(=O)NCC(=O)NCC(=O)N2CCN(CCn3c(C)nc(C(N)=O)c3N)CC2)c(=O)[nH]c1=O	BACTEC	12.5 µg/mL	H37Rv	inhibition	-	0%
CC(C)=CCC[C@@H](C)c1ccc(C)c(O)c1	-	-	-	MIC	-	16 µg/mL
CC(=O)Nc1ncnc2c1ncn2C1OC(COC(C)=O)C(NC(=O)C(F)(F)F)C1OC(C)=O	BACTEC	-	H37Rv	MIC bound	-	>12.5 µg/mL
CC1(C)CC[C@]2(CO)CC[C@]3(C)C(=CCC4[C@@]5(C)CC[C@H](O)C(C)(C)C5CC[C@]43C)C2C1	-	-	H37Rv	MIC	-	>64 µg/mL
Cc1nc(NC(=O)C(C)(C)C)sc1[N+](=O)[O-]	BACTEC	-	H37Rv	MIC bound	-	>12.5 µg/mL
CCCc1ncc(C(N)=S)nc1Sc1ccccc1	-	12.5 µg/mL	H37Rv	inhibition	-	63%
COc1cccc2c1N=c1c(Cl)c3c(c(Cl)c1O2)=Nc1c(OC)cccc1O3	BACTEC	12.5 µg/mL	H37Rv	inhibition	-	-5%
COc1cc(O)c2c(c1)OC(c1ccc(O)cc1)CC2=O	-	-	-	MIC	-	128 µg/mL
CC1(C)OC2OC(COC(=O)c3ccccc3)/C(=N\O)C2O1	BACTEC	-	H37Rv	MIC bound	-	>12.5 µg/mL
C/C=C(/C)C(=O)OC1CC(C)(C)CC2C3=CCC4C5(C)CC[C@H](O)C(C)(C)C5CC[C@@]4(C)[C@]3(C)CC[C@@]12C(=O)O	-	-	H37Rv	MIC	-	50 µg/mL

A second listing of 5 rows from above:

structure	method	tested at	strain or isolate	endpoint	setting	value
COC(=O)c1cn(-c2nccs2)nn1	-	6.25 µg/mL	H37Rv	inhibition	-	1%
CC(C)=CCC[C@@H](C)c1ccc(C)c(O)c1	-	-	-	MIC	-	16 µg/mL
CO[C@H]1/C=C/O[C@@]2(C)Oc3c(C)c(O)c4c(O)c(c(/C=N/N5CCN(C)CC5)c(O)c4c3C2=O)NC(=O)/C(C)=C\C=C\[C@H](C)[C@H](O)[C@@H](C)[C@@H](O)[C@@H](C)[C@H](OC(C)=O)[C@@H]1C	resazurin	-	H37Ra	MIC	-	0.05–0.1 µg/mL
CCOc1cc(/C=N/N=c2\scc(-c3cc4cc(Br)ccc4oc3=O)n2Cc2ccccc2)ccc1O	-	6.25 µg/mL	H37Rv	inhibition	-	<11%
CCCCc1ncc(C(N)=S)nc1SC	-	-	H37Rv	MIC	-	>12.5 µg/mL

An empty or dashed field is not shown. a–b is a range or a potency band. Rows are shuffled and stem from different studies. MIC50, MIC90 and the like: level of inhibition, or share of isolates inhibited. MIC bound: limit read from a one-dose screen. Inhibition is in % at the dose shown (toxicity tests: loss of growth or viability).